Data as given in PubChem BioAssay AID504761 (Drosophila RNAi Screening Center, 2011)

Assay: 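Genome-wide fly cell screen for genes dengue virus requires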 (primary screen)
Cell system: D.Mel-2 cells from Drosophila
Reagent: long dsRNA against Drosophila genes
Treatment: infection with dengue virus type 2; dose and infection time not stated
Detection: 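Per well on two replicate plates, imaging gave the percent of cells positive for viral envelope protein, ranked by infection, and a nuclear count of cells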
Direction: infection score: higher = more virus-infected cells
Rule for the call: 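Low infection ranks in the two replicates (chance level up to 0.065) followed by a retest with a 1.5-fold or larger significant decrease, p below 0.05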
Calls: active = confirmed: knock-down lowers infection; inactive = not picked or not confirmed
The deposit covers about 22,000 reagents; below is a random part of those with a known target gene and a result. Of all reagents, 116 (0.52%) were called active. 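Calls depend on retest data that are not deposited; infection was ranked per plate without normalising between plates; the unit of the infection score is not given.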 Names joined by + are all predicted targets of the reagent. Not all columns of the deposit are shown. Not stated in the record: the amount of reagent, the time to read-out.

gene knocked down | amplicon | infection score, replicate 1 | infection score, replicate 2 | activity call
Cul3 | DRSC03537 | 12.2 | 9.17 | inactive
Cul3 | DRSC21525 | 1.52 | 2.35 | inactive
Cul3 | DRSC26199 | 11.9 | 11.6 | inactive
Cul3 | DRSC27885 | 1.78 | 9.96 | inactive
CG14367 | DRSC14829 | 3.68 | 4.04 | inactive
drn | DRSC15147 | 18 | 11.5 | inactive
Nep4 | DRSC15539 | 8.04 | 2.66 | inactive
RpL12 | DRSC04344 | 6.69 | – | inactive
CG8001 | DRSC08611 | 13 | 14.5 | inactive
Pi3K21B | DRSC00771 | 2.68 | 6.33 | inactive
CG15256 | DRSC01940 | 1.73 | 2.35 | inactive
Uvrag | DRSC02932 | 8.72 | 28.7 | inactive
Ir75a | DRSC10188 | 2.53 | 1.42 | inactive
CG5823 | DRSC15881 | 2.37 | 4.74 | inactive
Polr3I | DRSC19922 | 3.25 | 2.51 | inactive
LysRS | DRSC17824 | 2.18 | 1 | inactive
LysRS | DRSC25618 | 6.88 | 5.05 | inactive
lmgA + lmgB | DRSC03566 | 17.1 | 2.25 | inactive
lmgA + lmgB | DRSC24454 | 8.03 | 4.82 | inactive
l(2)27Cb (retired record) | DRSC02758 | 2.6 | 14.3 | inactive
Obp83g | DRSC12269 | 3.51 | 6.35 | inactive
Obp83g | DRSC28322 | 20.1 | 9.49 | inactive
Pdi | DRSC11250 | 1.6 | 0.38 | inactive
Pdi | DRSC26376 | 4.88 | 2.08 | inactive
CG11122 | DRSC19382 | 4.09 | 2.5 | inactive
CG11122 | DRSC27302 | 8.18 | 2.47 | inactive
CG7231 | DRSC03034 | 1.03 | 1.52 | inactive
CG1387 | DRSC17904 | 2.5 | 3.73 | inactive

Targets listed so far whose gene name begins with P or p:
gene knocked down | amplicon | infection score, replicate 1 | infection score, replicate 2 | activity call
Pi3K21B | DRSC00771 | 2.68 | 6.33 | inactive
Polr3I | DRSC19922 | 3.25 | 2.51 | inactive
Pdi | DRSC11250 | 1.6 | 0.38 | inactive
Pdi | DRSC26376 | 4.88 | 2.08 | inactive

More reagents:
gene knocked down | amplicon | infection score, replicate 1 | infection score, replicate 2 | activity call
nom | DRSC16389 | 4.23 | 6.12 | inactive
nom | DRSC26026 | 12.8 | 4.78 | inactive
CG8089 | DRSC07074 | 11.2 | 6.3 | inactive
Dcp-1 | DRSC04609 | 3.61 | 7.48 | inactive
CG31522 | DRSC12005 | 2.3 | 3.32 | inactive
CG31522 | DRSC29792 | 11.8 | 4.92 | inactive
Acp32CD | DRSC01858 | 1.45 | 1.29 | inactive
Acp32CD | DRSC23817 | 6.2 | 12.1 | inactive
Gk1 | DRSC08533 | 3.36 | 12.2 | inactive
Gk1 | DRSC08534 | 10.1 | 4.52 | inactive
CG14627 | DRSC18630 | 8.78 | 4.83 | inactive
CG32086 | DRSC10586 | 2.19 | 5.01 | inactive
CG13481 | DRSC10023 | 1.55 | 1.15 | inactive
CG13481 | DRSC29353 | 7.07 | 16.1 | inactive
CG14740 | DRSC14960 | 4.82 | 15.7 | inactive
CG32645 | DRSC19683 | 5.89 | 7.61 | inactive
CG32645 | DRSC19889 | 14.3 | 9.25 | inactive
Spred | DRSC05976 | 7.79 | 10.8 | inactive
Spred | DRSC27475 | 38.8 | 6.79 | inactive
Gr22b | DRSC20911 | 1.19 | – | inactive
Cad96Cb | DRSC14243 | 3.83 | 3.52 | inactive
Cad96Cb | DRSC14665 | 0.46 | 1.32 | inactive
Cad96Cb | DRSC28720 | 12.5 | 5.83 | inactive
CG11052 | DRSC14288 | 15.2 | 6.28 | inactive
CysRS-m | DRSC07129 | 37.5 | 40.6 | inactive
goe | DRSC19345 | 2.55 | 3.56 | inactive
goe | DRSC29879 | 22.9 | 10 | inactive
CG31373 | DRSC16052 | 5.27 | 8.38 | inactive
CG32371 | DRSC22209 | 2.78 | 7.14 | inactive
CG32371 | DRSC26049 | 5.72 | 3.03 | inactive
CG11398 | DRSC18625 | 0.58 | 1.75 | inactive
CG15130 | DRSC02430 | 2.02 | – | inactive
CG18853 | DRSC06795 | 19.2 | 16.5 | inactive
GstD6 | DRSC16687 | 7.87 | 12.6 | inactive
GstD6 | DRSC24208 | 6.23 | 2.01 | inactive
neur | DRSC17013 | 5.16 | 4.2 | inactive
inaE | DRSC19376 | 5.8 | 12.8 | inactive
inaE | DRSC19377 | 11.7 | 14.7 | inactive
inaE | DRSC19379 | 0.54 | 13.2 | inactive
inaE | DRSC26883 | 12 | 7.84 | inactive
TwdlS | DRSC14737 | 8.13 | 1 | inactive
CG12091 | DRSC08251 | 6.51 | 4.58 | inactive
CG12091 | DRSC24873 | 1.71 | 2.84 | inactive
TBC1d7 | DRSC15985 | 0.81 | 5.68 | inactive
Rab5 | DRSC00777 | 1.15 | 0.6 | inactive
Rab5 | DRSC23710 | 3.28 | 0.93 | inactive
